We go through one substance from patent publication US20220073874A1, “METHODS FOR ENHANCING DIRECT REPROGRAMMING OF CELLS” (UNIVERSITY OF SOUTHERN CALIFORNIA, priority 2020, published 2022).

The subject of this experiment is mouse embryonic fibroblasts (MEFs). As to the kind of experiment: MEF-to-iMN reprogramming, quantification of conversion yield. Format: cell-based. Conditions: 6FDDRR, 1 μg/mL from 3-7 dpi, 14 dpi (FIG. 9O).

Consider α-amanitin, for which the “reprogramming (yield of iMNs)” value was “significantly impaired”.
